# Mutational scan of HIV-1 Vif (1203) in cells with APOBEC3G

From the data files of Langley et al. 2025, preprint, doi:10.1101/2025.10.20.683452.

Vif of 1203 (a subtype B primary isolate), residues 12-115; positions count from the first residue of the whole protein:
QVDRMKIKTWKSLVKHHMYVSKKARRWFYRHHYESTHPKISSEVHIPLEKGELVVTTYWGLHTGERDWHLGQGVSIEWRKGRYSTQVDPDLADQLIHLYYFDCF

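Pooled viruses with one designed change each in Vif went through two 72 h rounds in SupT1 cells expressing APOBEC3G. Frequencies after the second round, in three biological replicates, were compared with the merged pool after the first round.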

Values are log2 enrichment relative to wild type (0); lower means weaker defence against APOBEC3G and poorer growth. Substitutions are written as wild-type residue, site number, new residue. This list holds changes to glutamine only. The median of three replicates is given. Input reads are the counts in the merged round-one pool, before selection. Positive scores are uncertain; some enriched variants did not exclude APOBEC3G in a separate test. Some changes are missing from the data or left out. The scan is noisy: the rank correlation of replicates is about 0.4 to 0.65, and variants with under about 50 input reads tend to read too high.

With R15Q (input reads 368) the assay gave -0.99. For I18Q (input reads 256) the result was -1.97. For K19Q (input reads 260) the result was -2.54. With S23Q (input reads 151) the assay gave -2.92. For L24Q (input reads 32) the result was -1.48.

With K26Q (input reads 25) the assay gave 2.50. K33Q (input reads 1208) read -0.43. For K34Q (input reads 210) the result was -0.80. For W38Q (input reads 406) the result was -2.14. F39Q (input reads 27) gave 0.00.

Y40Q (input reads 1568) gave -1.71. H43Q (input reads 371) read -1.07. With Y44Q (input reads 23) the assay gave 2.01. For S46Q (input reads 20) the result was 2.28. With I51Q (input reads 272) the assay gave -2.25.

For E54Q (input reads 414) the result was -2.47. I57Q (input reads 125) gave -1.47. For P58Q (input reads 804) the result was -2.39. G62Q (input reads 147) read -3.67. With E63Q (input reads 285) the assay gave -1.73.

With Y69Q (input reads 243) the assay gave -1.87. H73Q (input reads 165) gave -2.79. T74Q (input reads 377) gave -0.09. G75Q (input reads 495) gave -1.76. E76Q (input reads 49) read -2.41.

W79Q (input reads 20) read -0.06. With G82Q (input reads 313) the assay gave -1.46. G84Q (input reads 150) read -1.72. I87Q (input reads 67) read -4.11. E88Q (input reads 47) read -2.58.

W89Q (input reads 374) read -3.05. R90Q (input reads 256) read -2.22. For K91Q (input reads 101) the result was -3.13. For G92Q (input reads 25) the result was -2.86. For S95Q (input reads 539) the result was 0.30.

With V98Q (input reads 222) the assay gave -2.71. For D101Q (input reads 373) the result was 1.10. L102Q (input reads 26) read 0.05. D104Q (input reads 148) gave -3.46. With L106Q (input reads 166) the assay gave -2.51.

I107Q (input reads 977) gave -1.81. For H108Q (input reads 29) the result was 3.96. For Y111Q (input reads 101) the result was -2.09. For F112Q (input reads 291) the result was -2.69. With D113Q (input reads 556) the assay gave -3.16.

The first 2 entries again:

change,input reads,median log2 enrichment
R15Q,368,-0.99
I18Q,256,-1.97